Assay [1] addresses HCMV C-A L222D (Human cytomegalovirus, UniProt P16753, A143V/A209V/C138A/C202A/C84A/C87A/L222D). It is filed as binding.
Assay [2] deals with HCMV C-A C161A (Human cytomegalovirus, UniProt P16753, A143V/A209V/C138A/C161A/C202A/C84A/C87A). It is filed as binding.

This note sets out measurements from PMC9133232 (Cell chemical biology, 2022).

As to `O=C(CCl)Cn1nnc(-c2ccccc2)c1COC(=O)NCc1ccccc1` [Compound 43, (1-(3-Chloro-2-oxopropyl)-4-phenyl-1H-1,2,3-triazol-5-yl)methyl benzylcarbamate], in assay [1], the “rate of labeling (kobs) HCMV C-A L222D monomer” value is 0.050 min⁻¹. Moreover, the “labeling of HCMV C-A C161A” value in assay [2] is listed as “no labeling occurs”.
